The exact form of at least one protein or probe is not confirmed. Results from cells or extracts need not show a direct contact.
Target: WT-NP-FLAG (influenza nucleoprotein) (Influenza A virus (Udorn)) (UniProt P06827)
Assay: EMSA
Conditions: Binding buffer, pH and temperature not stated, protein in a lysate after overexpression, residues 1-498, protein details: C-terminal short glycine linker + FLAG (DYKDDDDK), label: 5' biotin, single-stranded DNA

Sequence: AGCAAAAGCAGGGTGACAAAGACATGATAAAAAACACCCTTGTTTCTACT [biotin-ssDNA of 5' and 3' vRNA ends]
- binding result: binds
